According to PubChem BioAssay AID624483 (NMMLSC, 2012):
This is a selection; strong and weak results do not stand in their true shares. The source made the active and inactive calls. No stated cut-off is given here; in the data, active means fluorescence intensity above about 16000; inconclusive means no clear call, values can overlap the other calls; inactive means below that.

Test: counter-screen for toxin protease inhibitors: compound fluorescence, primary screen, artefact control for toxin protease inhibitor project, biochemical, multiplex microsphere, HTS (AID 624483); further: test concentration not given here
Settings: compound autofluorescence counterscreen, microsphere flow cytometry; hits give high values
In the case of `O=P(Nc1nc2ccccc2s1)(c1ccccc1)c1ccccc1`, the fluorescence intensity is reported as inactive: 5850. In the case of `O=P(Nc1ccccn1)(c1ccc(Br)cc1)c1ccc(Br)cc1`, the fluorescence intensity is reported as inactive: 5090. With `CN(C)C1(CNC(=O)c2ccc(Cl)c(S(N)(=O)=O)c2)CCCCC1` the fluorescence intensity was inactive: 3600. For `COc1ccc(N)c([N+](=O)[O-])c1[N+](=O)[O-]`, the fluorescence intensity was inactive: 3920. For `COc1ccc(OP(C)(=O)Nc2cccc(Br)c2)cc1` (stereo unspecified), the fluorescence intensity was inactive: 10700. In the case of `O=C(OC1CN2CCC1CC2)c1cccc(Cl)c1` (stereo unspecified), the fluorescence intensity is reported as inactive: 5360. In the case of `C(Cc1nn[nH]n1)Cc1nn[nH]n1`, the fluorescence intensity is reported as inactive: 2050. For `Nc1ccc([As](=O)(O)c2ccc([N+](=O)[O-])cc2)cc1`, the fluorescence intensity was inactive: 4540. With `Cc1c(C(c2ccc3c(c2)OCO3)c2c(C)n(C)n(-c3ccccc3)c2=O)c(=O)n(-c2ccccc2)n1C.O=[N+]([O-])c1cc([N+](=O)[O-])c(O)c([N+](=O)[O-])c1` the fluorescence intensity was inactive: 4470. With `O=[N+]([O-])c1cc([N+](=O)[O-])c(NCC2CCS(=O)(=O)C2)c([N+](=O)[O-])c1` (stereo unspecified) the fluorescence intensity was inactive: 2060. For `Cc1cc(-c2cccc3ccccc23)c(C)cn1.O=[N+]([O-])c1cc([N+](=O)[O-])c(O)c([N+](=O)[O-])c1`, the fluorescence intensity was inactive: 3410. For `O=[As](O)(c1ccccc1)c1ccc(O)cc1`, the fluorescence intensity was inactive: 3180. With `O=[N+]([O-])c1ccc(O)c(/C=N/Nc2ccc([N+](=O)[O-])cc2[N+](=O)[O-])c1` the fluorescence intensity was inactive: 3760. With `O=[N+]([O-])c1ncn(CCn2cnc([N+](=O)[O-])n2)n1` the fluorescence intensity was inactive: 3500. For `CC(=O)NC(SC(=S)N(C)C)C(Cl)(Cl)Cl` (stereo unspecified), the fluorescence intensity was inactive: 1920. With `O=[N+]([O-])c1ccc(OP2(=O)COCCO2)cc1` (stereo unspecified) the fluorescence intensity was inactive: 3600. In the case of `CP(=O)(OC12CC3CC(CC(C3)C1)C2)OC12CC3CC(CC(C3)C1)C2`, the fluorescence intensity is reported as active: 20700. In the case of `O=C(Nc1cc([As](=O)(O)O)ccc1O)c1ccccc1`, the fluorescence intensity is reported as inactive: 3900. With `CCOC(=O)c1ccc(NP(C)(=O)Oc2ccc(Cl)cc2)cc1` (stereo unspecified) the fluorescence intensity was inactive: 9010. With `O=P1(N(CCCl)CCCl)OCCCS1` (stereo unspecified) the fluorescence intensity was inactive: 4040. With `O=C(O)CNc1ccc([As](=O)(O)O)cc1` the fluorescence intensity was inactive: 3970. In the case of `COC(=O)C1(C)COP(=O)(Nc2ccccc2)OC1` (stereo unspecified), the fluorescence intensity is reported as inactive: 4110. For `O=[N+]([O-])c1cccc(NC2=NCC(CBr)S2)c1` (stereo unspecified), the fluorescence intensity was inactive: 3280. In the case of `O=[N+]([O-])c1ncn(CCn2ncnc2[N+](=O)[O-])n1`, the fluorescence intensity is reported as inactive: 4670. For `CC(C)(C)C(=O)NC(Sc1ccncn1)C(Cl)(Cl)Cl` (stereo unspecified), the fluorescence intensity was inactive: 4450. In the case of `CCc1ccc(OP(C)(=O)Nc2cccnc2)cc1` (stereo unspecified), the fluorescence intensity is reported as inactive: 4670. With `O=[N+]([O-])c1cc([N+](=O)[O-])c(CCNc2ccccc2)c([N+](=O)[O-])c1` the fluorescence intensity was inactive: 4300. In the case of `CP(=O)(Oc1ccccc1)N1CCOC1=O` (stereo unspecified), the fluorescence intensity is reported as inactive: 5370. In the case of `Cc1ccc(NP(=O)(Oc2ccccc2)Oc2ccccc2)nc1`, the fluorescence intensity is reported as inactive: 4520. With `O=C(OCCCN1CCCC1)C(O)(c1ccccc1)C1CCCCC1` (stereo unspecified) the fluorescence intensity was inactive: 3970. With `O=[N+]([O-])c1cccc2n[nH]nc12` the fluorescence intensity was inactive: 4740. For `CC(=O)N1C2C3N(C(C)=O)C1C1N(C(C)=O)C(C(N1C(C)=O)N3C(C)=O)N2C(C)=O`, the fluorescence intensity was inactive: 3070. For `COc1ccccc1OP(C)(=O)Nc1c(C)n(C)n(-c2ccccc2)c1=O` (stereo unspecified), the fluorescence intensity was inactive: 2860. With `COc1ccc(OP(C)(=O)Nc2ccc(Br)cc2)cc1` (stereo unspecified) the fluorescence intensity was inactive: 9590. In the case of `COc1ccc(C2=NCC(CBr)S2)cc1` (stereo unspecified), the fluorescence intensity is reported as inactive: 4420. For `CCN(CC)CC(O)COC(=O)C(O)(c1ccccc1)C1CCCCC1` (stereo unspecified), the fluorescence intensity was inactive: 3700. For `CC1CCN(C(=O)Oc2c(Cl)cc(Cl)c3cccnc23)CC1`, the fluorescence intensity was inactive: 3200. In the case of `c1cc(-c2nn[nH]n2)ccc1-c1nn[nH]n1`, the fluorescence intensity is reported as inactive: 3830. For `CN(C)C(=O)OCCc1n(C)cc[n+]1C`, the fluorescence intensity was inactive: 2260. In the case of `CC(C)c1nc(Nc2ccccc2)n(P(=O)(N(C)C)N(C)C)n1`, the fluorescence intensity is reported as inactive: 2800. For `CN(C)C(=O)c1c([N+](=O)[O-])cc([N+](=O)[O-])cc1[N+](=O)[O-]`, the fluorescence intensity was inactive: 5200. For `CC(C)=N/N=C(\N)N[N+](=O)[O-]`, the fluorescence intensity was inactive: 2640. For `CP(=O)(Nc1ccc(Cl)cc1)Oc1ccc(F)cc1` (stereo unspecified), the fluorescence intensity was inactive: 12700. With `CCN(/C(=N/P(=O)(N1CCOCC1)N1CCOCC1)N1CCOCC1)c1ccc(OC)cc1` the fluorescence intensity was inactive: 2380. For `C[N+]1=C2C=CC=CC=C2SC12C([N+](=O)[O-])=CC([N+](=O)[O-])=C[C-]2[N+](=O)[O-]` (stereo unspecified), the fluorescence intensity was inactive: 3240. With `COc1ccccc1OP(C)(=O)Nc1ccccc1Br` (stereo unspecified) the fluorescence intensity was inactive: 4250. For `CC(C)(C)c1ccc(OP(C)(=O)O)cc1`, the fluorescence intensity was active: 22200. For `Nc1ccc([As](=O)(O)c2ccc(N)cc2)cc1`, the fluorescence intensity was inactive: 3380. With `CN1CCCC(OC(=O)C(c2ccccc2)c2ccccc2)C1` (stereo unspecified) the fluorescence intensity was inactive: 4300. In the case of `Clc1ccc(Cl)c(NC2=NCC(CBr)S2)c1` (stereo unspecified), the fluorescence intensity is reported as inactive: 4090. In the case of `CN(C)CCOC(=O)C(O)(c1ccccc1)C1CCCC1` (stereo unspecified), the fluorescence intensity is reported as inactive: 10400. In the case of `Cc1ccc(OP(=O)(Nc2nccs2)Oc2ccc(C)cc2)cc1`, the fluorescence intensity is reported as inactive: 3400. With `COc1ccccc1OP(=O)(Nc1ccc(C)cn1)Oc1ccccc1OC` the fluorescence intensity was inactive: 2050. In the case of `COc1ccc(OP(C)(=O)Nc2ccccn2)cc1` (stereo unspecified), the fluorescence intensity is reported as inactive: 9160. For `Cc1ccc(N/C(=N/P(=O)(N2CCOCC2)N2CCOCC2)N2CCOCC2)cc1`, the fluorescence intensity was inactive: 4210. For `CN(C(=O)Cc1ccc(Cl)c(Cl)c1)[C@H]1CCCC[C@H]1N1CCCC1`, the fluorescence intensity was inactive: 6450. For `COc1ccccc1OP(C)(=O)Nc1ccc(Br)cc1` (stereo unspecified), the fluorescence intensity was inactive: 4710. In the case of `NC(=O)c1cc([N+](=O)[O-])cc([N+](=O)[O-])c1N`, the fluorescence intensity is reported as inactive: 4230. In the case of `CCc1ccc(OP(C)(=O)O)cc1`, the fluorescence intensity is reported as inactive: 2380. For `O=[N+]([O-])C1C(O)C(O)C([N+](=O)[O-])C(O)C1O` (stereo unspecified), the fluorescence intensity was inactive: 6380. For `COc1ccccc1OP(C)(=O)Nc1ccc(C)cc1C` (stereo unspecified), the fluorescence intensity was inactive: 6630. For `CP(=O)(Nc1ccccn1)Oc1ccccc1` (stereo unspecified), the fluorescence intensity was inactive: 3560. With `O=C(NC(Sc1ccncn1)C(Cl)(Cl)Cl)c1ccccc1` (stereo unspecified) the fluorescence intensity was inactive: 10800. For `Oc1ccccc1CNc1ccccn1`, the fluorescence intensity was inactive: 4410. In the case of `Cc1c(NP(C)(=O)Oc2ccc(C(C)C)cc2)c(=O)n(-c2ccccc2)n1C` (stereo unspecified), the fluorescence intensity is reported as inactive: 4260. For `Nc1cc(N)c2nonc2c1[N+](=O)[O-]`, the fluorescence intensity was inactive: 4480. In the case of `CC(C)CC(=O)NC(Sc1ccc(Cl)cc1)C(Cl)(Cl)Cl` (stereo unspecified), the fluorescence intensity is reported as inactive: 8060. For `O=[N+]([O-])c1cc([N+](=O)[O-])c(Nc2ccccn2)c([N+](=O)[O-])c1`, the fluorescence intensity was inactive: 4250. For `COc1ccc(OP(C)(=O)Nc2ccccc2Br)cc1` (stereo unspecified), the fluorescence intensity was inactive: 2070. In the case of `COc1ccccc1OP(C)(=O)Nc1ccc(C)c(C)c1` (stereo unspecified), the fluorescence intensity is reported as inactive: 3320. In the case of `Cc1ccc(NP(=O)(Oc2ccccc2F)Oc2ccccc2F)nc1`, the fluorescence intensity is reported as inactive: 6090. In the case of `CN(C(=O)Cc1ccc(Cl)c(Cl)c1)[C@H]1CCCC[C@@H]1N1CCCC1`, the fluorescence intensity is reported as inactive: 6420. With `Cc1cc(SC(NC(=O)c2ccc(F)cc2)C(Cl)(Cl)Cl)ncn1` (stereo unspecified) the fluorescence intensity was inactive: 2340. For `CCOP(=O)(Nc1ccccc1)OCC`, the fluorescence intensity was inactive: 3630. With `O=P(Nc1nc2ccc(Cl)cc2s1)(c1ccccc1)c1ccccc1` the fluorescence intensity was inactive: 6080. In the case of `Cc1cc(C)cc(OP(C)(=O)Nc2cccc(C(F)(F)F)c2)c1` (stereo unspecified), the fluorescence intensity is reported as inactive: 3560. For `CN(C)P(=O)(N(C)C)n1c(Nc2ccccc2)nnc1-c1ccccc1`, the fluorescence intensity was inactive: 3570. For `O=C1C(O)=C([N+](=O)[O-])C(=O)C(O)=C1[N+](=O)[O-]`, the fluorescence intensity was inactive: 3560. For `CCCC1OP(N)(=O)OCC1CC` (stereo unspecified), the fluorescence intensity was inactive: 3890. With `CC(=O)Nc1ccc([As](=O)(O)O)cc1` the fluorescence intensity was inactive: 3950. In the case of `O=C(O)c1ccccc1[As](=O)(O)O`, the fluorescence intensity is reported as inactive: 3370. With `CCCCCCCCCCCCCCCC1C[N+](C)(C)CCOP(C)(=O)O1` (stereo unspecified) the fluorescence intensity was inactive: 3060. In the case of `CP(=O)(Nc1ccc(Cl)cc1Cl)Oc1ccccc1` (stereo unspecified), the fluorescence intensity is reported as inactive: 3520. In the case of `CP(=O)(OCCOc1ccccc1)OCCOc1ccccc1`, the fluorescence intensity is reported as inactive: 3420. For `Nc1cccc2ccc([As](=O)(O)O)cc12`, the fluorescence intensity was inactive: 3830. For `CCN(N=Nc1nonc1N)c1nonc1N`, the fluorescence intensity was inactive: 9520.
